Results of unrelated studies side by side (data: NIAID ChemDB).

All rows: growth or infection tests; species: HIV-1; method: MTT; endpoint: EC50

Neighbouring rows are from separate reports. An empty or dashed field is not shown. ECn: concentration that inhibits the pathogen or its effect by n%.

compound	mutations	strain	cells	value
N#Cc1ccc(Nc2nc(Oc3ccc(-c4ccc(C#N)cc4)cc3[N+](=O)[O-])c3sccc3n2)cc1		RES056	MT-4	>219 µM
Nc1ccn([C@H]2CC[C@@H](CO)O2)c(=O)n1		ROD	MT-4	0.328 µg/mL
Cc1cc(C#Cc2ccc(N)cc2)cc(C)c1Oc1ccnc(Nc2ccc(C#N)cc2)n1	Y188L	IIIB	MT-4	0.504 µM
COc1c(CC=C(C)C)c(O)cc2c1C[C@H](c1ccc(O)cc1O)CO2		IIIB	MT-4	>100 µg/mL
C#Cc1ccc(Nc2nccc(Oc3c(C)cc(-c4cn(-c5cccc(C(=O)OC)c5)nn4)cc3C)n2)cc1	L100I	IIIB	MT-4	0.47 µM
CC1(C)C=Cc2c(ccc(C3COc4cc(O)cc(O)c4C3=O)c2O)O1		IIIB	MT-4	>100 µg/mL
Cc1cc(C)c(Nc2nc(NC3CCN(Cc4ccccc4F)CC3)nc3nc[nH]c23)c(C)c1		IIIB	MT-4	>23.61 µM
CC(=O)Nc1cnc(Oc2c(Cl)cc(Cl)cc2Cl)nc1Nc1ccc(C#N)cc1		IIIB	MT-4	1.92 µM
Cc1cc(C#N)cc(C)c1Oc1ccc([N+](=O)[O-])c(NC2CCN(Cc3ccc(C(N)=O)cc3)CC2)n1		IIIB	MT-4	0.031 µg/mL
CC(C)Nc1cccnc1N1CCN(C(=O)c2cc3cc(NS(C)(=O)=O)ccc3[nH]2)CC1	F227L + V106A	IIIB	MT-4	2.616 µM
O=c1c(O)c(-c2ccc(O)cc2O)oc2cc(O)cc(O)c12		IIIB	MT-4	>500 µg/mL
CC(=O)Nc1cccc(C#Cc2cc(C)c(Oc3ccnc(Nc4ccc(C#N)cc4)n3)c(C)c2)c1		IIIB	MT-4	0.016 µM
O=S1(=O)NC(Cc2cccc3ccccc23)=CC(=NC2CCN(Cc3ccc(Br)cc3)CC2)N1		IIIB	MT-4	25.58 µM
CC(=O)Nc1cnc(Oc2c(C)cc(Br)cc2C)nc1Nc1ccc(C#N)cc1		IIIB	MT-4	32.5 µM
N#Cc1ccc(Nc2nccc(Oc3cc4c(cc3Br)c(=O)c(C(=O)O)cn4C3CCCC3)n2)cc1	K103N Y181C NNRTI-resistant	IIIB	MT-4	2.76 µM
Cc1cc(C)cc(S(=O)(=O)c2c(C(=O)NC(C)C(N)=O)[nH]c3ccc(Cl)cc23)c1	Y188L		MT-4	0.66 µM
Cc1cc(C#N)cc(C)c1Oc1nc(NC2CCN(Cc3cccc(C(N)=O)c3)CC2)nc2sccc12	NNRTI-resistant (RT E138K)	IIIB	MT-4	0.00869 µM
COc1ccc2nc3cc(Cl)ccc3c(N[C@H]3CCCN4CCCC[C@H]34)c2c1			MT-4	>6.4 µM
N#Cc1ccc(Nc2nccc(Oc3cc4c(cc3Br)c(=O)c(C(=O)O)cn4C3CC3)n2)cc1	K103N Y181C NNRTI-resistant	IIIB	MT-4	>14.99 µM
Cc1ccccc1CN1CCC(N=C2C=C(Cc3ccc(Cl)cc3Cl)NS(=O)(=O)N2)CC1		IIIB	MT-4	24.18 µM
CCN(CC)CCCC(C)Nc1c2ccc(Cl)cc2nc2ccc(OC)cc12			MT-4	>1.8 µM
Cc1cc(C)c(Nc2nc(NC3CCN(Cc4cccc(F)c4)CC3)nc3nc[nH]c23)c(C)c1		IIIB	MT-4	>30.68 µM
Cc1cc(C)c(Nc2ccc([N+](=O)[O-])c(NC3CCN(Cc4ccncc4)CC3)n2)c(C)c1	Resistant strain (K103N + Y181C)	IIIB	MT-4	>31 µM
C#Cc1ccc(Nc2nccc(Oc3c(C)cc(-c4cn(Cc5cccc([N+](=O)[O-])c5)nn4)cc3C)n2)cc1	E138K	IIIB	MT-4	0.51 µM
CC(C)Cn1cc(C(=O)O)c(=O)c2cc(Br)c(Oc3ccnc(Nc4ccc(C#N)cc4)n3)cc21		IIIB	MT-4	0.82 µM
COc1ccc(-c2coc3cc(O)cc(O)c3c2=O)cc1		IIIB	MT-4	>100 µg/mL
COc1cc(-c2ccc(C#N)cc2)ccc1Oc1nc(Nc2ccc(C#N)cc2)nc2ccsc12		IIIB	MT-4	0.0358 µM
COc1ccc2nc3cc(Cl)ccc3c(NC[C@@H]3CCCN4CCCC[C@H]34)c2c1			MT-4	>0.5 µM
Cc1cc(/C=C/c2ccccc2)cc(C)c1Oc1ccnc(Nc2ccc(C#N)cc2)n1	RES056	IIIB	MT-4	6.433 µM
Cc1cc(-c2ccc(C#N)cc2)cc(C)c1Oc1nc(Nc2ccc(C#N)cc2)nc2ccsc12	Y181C	IIIB	MT-2	0.0571 µM
CCOC(=O)C(=O)CC(=O)c1cccc(Oc2ccnc(Nc3ccc(C#N)cc3)n2)c1	K103N	IIIB	MT-4	>14 µM
N#Cc1cccc(CN2CCC(N=C3C=C(Cc4ccc(Cl)cc4Cl)NS(=O)(=O)N3)CC2)c1		IIIB	MT-4	35 µM
COc1ccc2nc3cc(Cl)ccc3c(NCCCO)c2c1			MT-4	>59 µM
Cc1cc(C#Cc2cccc(N)c2)cc(C)c1Oc1ccnc(NC2CCN(Cc3ccc(C(N)=O)cc3)CC2)n1	RES056	IIIB	MT-4	>0.198 µM
N#Cc1ccc(Nc2nc(Oc3c(Br)cc(Br)cc3Br)ncc2N)cc1		RES056	MT-4	4.92 µM
COCOc1ccc(C2CC(=O)c3c(O)cc(OCOC)cc3O2)c(OCOC)c1		IIIB	MT-4	>100 µg/mL
Cc1cn([C@H]2C[C@H](N=[N+]=[N-])[C@@H](CO)O2)c(=O)[nH]c1=O		IIIB	MT-4	0.007 µM
CC(=O)Nc1cnc(Oc2c(Br)cc(Br)cc2Br)nc1Nc1ccc(C#N)cc1		IIIB	MT-4	19.6 µM
C#Cc1ccc(Nc2nccc(Oc3c(C)cc(-c4cn(Cc5ccc(S(N)(=O)=O)cc5)nn4)cc3C)n2)cc1	F227L and V106A	IIIB	MT-4	>86.44 µM
C=C1[C@H](CO)[C@@H](O)C[C@@H]1n1cnc2c(=O)[nH]c(N)nc21		RES056	MT-4	>0.025 µM
Cc1cn([C@H]2C[C@H](N=[N+]=[N-])[C@@H](CO)O2)c(=O)[nH]c1=O	NNRTI-resistant (RT L100I)	IIIB	MT-4	0.00375 µM
Cc1cc(C)c(Oc2ncc(NC(=O)C(F)(F)F)c(Nc3ccc(C#N)cc3)n2)c(C)c1		IIIB	MT-4	0.0385 µM
Cc1ccnc2c1NC(=O)c1cccnc1N2C1CC1	F227L + V106A	IIIB	MT-4	>15 µM
COc1ccc2nc3cc(Cl)ccc3c(NCCC[C@@H]3CCCN4CCCC[C@H]34)c2c1			MT-4	>1.3 µM
O=S1(=O)NC(Cc2ccc(Cl)cc2Cl)=CC(=NC2CCN(Cc3ccc(Br)cc3)CC2)N1	RT-K103N Y181C	RES056	MT-4	>97.9 µM
Cc1cc(C#N)cc(C)c1Oc1ccc([N+](=O)[O-])c(NC2CCN(Cc3ccc(S(C)(=O)=O)cc3)CC2)n1		IIIB	MT-4	0.01 µg/mL
O=[N+]([O-])c1ccc(CN2CCC(N=C3C=C(Cc4cccc5ccccc45)NS(=O)(=O)N3)CC2)cc1	RT-K103N Y181C	RES056	MT-4	>104 µM
N#Cc1ccc(Nc2nccc(Oc3cccc(C(=O)CC(=O)C(=O)O)c3)n2)cc1		RES056	MT-4	>9 µM
Cc1cc(C#N)cc(C)c1Oc1nc(NC2CCC(NCc3ccc(Br)cc3)CC2)nc2ccsc12	NNRTI-resistant (RT K103N)	IIIB	MT-4	≥0.766 µM
O=c1cc(-c2ccccc2)oc2cc(O)cc(O)c12		IIIB	MT-4	15 µg/mL
Cc1cc(C)c(Nc2nc(NC3CCN(Cc4ccc(Br)cc4)CC3)nc3nc[nH]c23)c(C)c1		IIIB	MT-4	>11.45 µM
Cc1cc(C#N)cc(C)c1Oc1ccc([N+](=O)[O-])c(NC2CCN(Cc3ccc(S(N)(=O)=O)cc3)CC2)n1	Resistant strain (K103N + Y181C)	IIIB	MT-4	>7.6 µM
N#Cc1ccc(Nc2nc(Oc3ccc(-c4ccc(C#N)cc4)cc3)c3sccc3n2)cc1		IIIB	MT-4	0.0674 µM
C#Cc1ccc(Nc2nccc(Oc3c(C)cc(-c4cn(CCCC(=O)OC)nn4)cc3C)n2)cc1	Y181C	IIIB	MT-4	≥7.16 µM
CC(=O)Nc1cnc(Oc2c(C)cc(C#N)cc2C)nc1Nc1ccc(C#N)cc1		RES056	MT-4	>30.11 µM
N#Cc1ccc(CN2CCC(N=C3C=C(Cc4cccc5ccccc45)NS(=O)(=O)N3)CC2)cc1	RT-K103N Y181C	RES056	MT-4	>100 µM
Cc1cc(C#Cc2ccc(C(=O)O)cc2)cc(C)c1Oc1ccnc(Nc2ccc(C#N)cc2)n1	Y188L	IIIB	MT-4	0.523 µM
Cc1cc(C#N)cc(C)c1Oc1nc(Nc2ccc(C#N)cc2)nc(N)c1Br	NNRTI-resistant (RT L100I)	IIIB	MT-4	0.00538 µM
CC(C)=CCc1c(O)cc(O)c2c1O[C@H](c1ccc(O)cc1)CC2=O		IIIB	MT-4	25 µg/mL
CC(=O)Nc1cnc(Oc2c(Cl)cccc2Cl)nc1Nc1ccc(C#N)cc1		IIIB	MT-4	32.3 µM
CC(=O)c1ccc(CN2CCC(N=C3C=C(Cc4ccc(Cl)cc4Cl)NS(=O)(=O)N3)CC2)cc1		IIIB	MT-4	≥36.24 µM
Cc1cc(C)c(Nc2nc(NC3CCN(Cc4ccccn4)CC3)nc3nc[nH]c23)c(C)c1		RES056	MT-4	>114 µM
Cc1cc(C#CC2CC2)cc(C)c1Oc1ccnc(Nc2ccc(C#N)cc2)n1	Y188L	IIIB	MT-4	0.368 µM
CCCCn1cc(C(=O)O)c(=O)c2cc(I)c(Oc3ccnc(Nc4ccc(C#N)cc4)n3)cc21	K103N Y181C NNRTI-resistant	IIIB	MT-4	0.98 µM
CC(C)=CCc1c([C@@H]2CCc3ccc(O)cc3O2)cc2c(c1O)OC(C)(C)C=C2		IIIB	MT-4	>20 µg/mL
Cc1cc(C#Cc2ccc(C(F)(F)F)cc2)cc(C)c1Oc1ccnc(Nc2ccc(C#N)cc2)n1		IIIB	MT-4	0.224 µM
CCOC(=O)C1CN(Cc2ccc(S(N)(=O)=O)cc2)CCC1Nc1nc(Oc2c(C)cc(C#N)cc2C)c2sccc2n1	NNRTI-resistant (RT F227L V106A)	IIIB	MT-4	0.00127 µM

10 of the rows above, restated:

compound,mutations,strain,cells,value
O=S1(=O)NC(Cc2cccc3ccccc23)=CC(=NC2CCN(Cc3ccc(Br)cc3)CC2)N1,,IIIB,MT-4,25.58 µM
Cc1cc(C)c(Nc2nc(NC3CCN(Cc4ccccc4F)CC3)nc3nc[nH]c23)c(C)c1,,IIIB,MT-4,>23.61 µM
COc1ccc2nc3cc(Cl)ccc3c(NCCC[C@@H]3CCCN4CCCC[C@H]34)c2c1,,,MT-4,>1.3 µM
N#Cc1ccc(Nc2nccc(Oc3cc4c(cc3Br)c(=O)c(C(=O)O)cn4C3CCCC3)n2)cc1,K103N Y181C NNRTI-resistant,IIIB,MT-4,2.76 µM
CC(C)Cn1cc(C(=O)O)c(=O)c2cc(Br)c(Oc3ccnc(Nc4ccc(C#N)cc4)n3)cc21,,IIIB,MT-4,0.82 µM
N#Cc1ccc(Nc2nc(Oc3c(Br)cc(Br)cc3Br)ncc2N)cc1,,RES056,MT-4,4.92 µM
CC(=O)c1ccc(CN2CCC(N=C3C=C(Cc4ccc(Cl)cc4Cl)NS(=O)(=O)N3)CC2)cc1,,IIIB,MT-4,≥36.24 µM
Cc1cc(C#Cc2ccc(C(=O)O)cc2)cc(C)c1Oc1ccnc(Nc2ccc(C#N)cc2)n1,Y188L,IIIB,MT-4,0.523 µM
N#Cc1ccc(Nc2nc(Oc3ccc(-c4ccc(C#N)cc4)cc3[N+](=O)[O-])c3sccc3n2)cc1,,RES056,MT-4,>219 µM
Cc1cc(C#N)cc(C)c1Oc1nc(Nc2ccc(C#N)cc2)nc(N)c1Br,NNRTI-resistant (RT L100I),IIIB,MT-4,0.00538 µM